Laboratory results: PubChem BioAssay AID504761 (Drosophila RNAi Screening Center, 2011)
The deposit covers about 22,000 reagents; this is a random part of those with a known target gene and a result. In the full data, 116 (0.52%) got an active call. 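Calls depend on retest data that are not deposited; infection was ranked per plate without normalising between plates; the unit of the infection score is not given.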 The raw values are shown without normalisation. Names joined by + are all predicted targets of the reagent. Not stated in the record: the amount of reagent, the time to read-out.

- Assay: 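Insect host genes that dengue virus relies on to spread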 (primary screen)
- System: D.Mel-2 cells from Drosophila
- Knock-down reagent: long dsRNA against Drosophila genes
- Treatment: infection with dengue virus type 2; dose and infection time not stated
- Detection: 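Per well on two replicate plates, imaging gave the percent of cells positive for viral envelope protein, ranked by infection, and a nuclear count of cells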
- Reading the numbers: infection score: higher = more virus-infected cells; cell count: higher = more cells in the well
- Call rule: 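Low infection ranks in the two replicates (chance level up to 0.065) followed by a retest with a 1.5-fold or larger significant decrease, p below 0.05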
- Meaning of the calls: active = confirmed: knock-down lowers infection; inactive = not picked or not confirmed

The first 7 records as a preview:
gene	amplicon	infection score, replicate 1	infection score, replicate 2	cell count, replicate 1	cell count, replicate 2	outcome
Gr32a (Gustatory receptor 32a)	DRSC02400	30	10.8	6226	6588	inactive
CG4360	DRSC15566	10.6	0.39	4065	5861	inactive
CG4360	DRSC30049	22.9	4.46	5459	6412	inactive
Hsp68 (Heat shock protein 68)	DRSC16712	0.96	6.44	1250	6767	inactive
oys (oysgedart)	DRSC05203	0.4	0.37	6187	5202	inactive
oys (oysgedart)	DRSC06751	33.2	16.5	4010	6088	inactive
oys (oysgedart)	DRSC26939	1.7	4.05	6469	6045	inactive

Results, from the first entry:
gene	amplicon	infection score, replicate 1	infection score, replicate 2	cell count, replicate 1	cell count, replicate 2	outcome
Gr32a (Gustatory receptor 32a)	DRSC02400	30	10.8	6226	6588	inactive
CG4360	DRSC15566	10.6	0.39	4065	5861	inactive
CG4360	DRSC30049	22.9	4.46	5459	6412	inactive
Hsp68 (Heat shock protein 68)	DRSC16712	0.96	6.44	1250	6767	inactive
oys (oysgedart)	DRSC05203	0.4	0.37	6187	5202	inactive
oys (oysgedart)	DRSC06751	33.2	16.5	4010	6088	inactive
oys (oysgedart)	DRSC26939	1.7	4.05	6469	6045	inactive
CG13362	DRSC17897	9.56	0.98	4165	6866	inactive
CG13362	DRSC25324	4.26	10.8	6580	5738	inactive
CG9981	DRSC20225	4.76	4.33	6908	6795	inactive
Psa (Puromycin sensitive aminopeptidase)	DRSC08152	6.62	2.95	1903	983	inactive
CG8320 + ATPCL	DRSC07147	7.39	30.2	7059	5538	inactive
Cyp12e1 (Cytochrome P450 12e1)	DRSC16622	13.6	3.91	5955	5217	inactive
CG11857	DRSC14411	5.31	2.96	5179	5439	inactive
l(1)G0469 (lethal (1) G0469)	DRSC19412	10.1	5.57	6276	6733	inactive
l(1)G0469 (lethal (1) G0469)	DRSC19462		19.7	368	4949	inactive
CG1074	DRSC12143	1.94	2.43	6539	6706	inactive
CG1074	DRSC29045	12.9		2301	316	inactive
emei	DRSC10897	4.55	7.06	6264	5664	inactive
emei	DRSC22684	4.58	0.68	6269	6348	inactive
Obp56h (Odorant-binding protein 56h)	DRSC06433	0.77	0.27	5942	6222	active
Obp56h (Odorant-binding protein 56h)	DRSC24257	5.57	1.2	6253	6089	inactive
Cyp9b2 (Cytochrome P450 9b2)	DRSC07390	7.16	7.39	6295	6337	inactive
Cyp9b2 (Cytochrome P450 9b2)	DRSC24835	4.35	0.71	6392	6649	inactive
Acat1 (Acetyl-CoA acetyltransferase 1)	DRSC17766	3.73	33.1	6728	6182	inactive
Acat1 (Acetyl-CoA acetyltransferase 1)	DRSC28395	6.73		4293	371	inactive
MCTS1 (Malignant T cell amplified sequence 1)	DRSC18393	13.4	5.2	6121	6386	inactive
CG13516	DRSC04159	3.71	6.52	6177	6624	inactive
Pten (Phosphatase and tensin homolog)	DRSC03402	1.65	2.71	6288	6022	inactive
Pten (Phosphatase and tensin homolog)	DRSC29950	36.4	16.7	5400	6060	inactive
knk (knickkopf)	DRSC15993	3.5	0.89	6486	6757	inactive
vnc + CG42455	DRSC09867	6.92	3.37	4552	4683	inactive
sug (sugarbabe)	DRSC06855	5.41	9.88	6232	6465	inactive
sug (sugarbabe)	DRSC29599	18	7.15	3774	895	inactive
Usp12-46 (Ubiquitin-specific protease 12/46)	DRSC16175	0.41	1.23	6272	7018	inactive
Femcoat	DRSC18061	4.51	4.49	6503	6417	inactive
Femcoat	DRSC28792	24.4	5.62	5611	4164	inactive
CG34425	DRSC12210	8.54	2.67	6063	6290	inactive
CG34425	DRSC22315	2.58	3.13	6249	6323	inactive
Nufip	DRSC10397	6.31	12.2	6327	6532	inactive
CG5555	DRSC15834	5.12	1.76	6391	6356	inactive
Inx7 + cm	DRSC18753	5.1	17.1	6161	6050	inactive
CG10654	DRSC09767	3.73	13	6065	6113	inactive
CG31777	DRSC00201	2.86	3.76	5877	5641	inactive
Noc1 (Nucleolar complex protein 1)	DRSC10921	5.62	1.97	6390	6651	inactive
Ask1 (Apoptotic signal-regulating kinase 1)	DRSC16789	9.21	17.3	2139	3444	inactive
Ask1 (Apoptotic signal-regulating kinase 1)	DRSC21697	1.32	1.45	6532	6702	inactive
CG14357	DRSC14820	0.97	2.13	6190	6660	inactive
CG14357	DRSC28685	19.7	12.5	4321	4045	inactive
CG8620	DRSC11020	4.65	11.9	6297	5874	inactive
CG8620	DRSC25632	6.68	5.72	5885	6089	inactive
Lsp1gamma (Larval serum protein 1 gamma)	DRSC08672	3.38	6.64	6479	6237	inactive
Lsp1gamma (Larval serum protein 1 gamma)	DRSC25710	5.25	6.96	5622	6053	inactive
CG14313	DRSC14792	1.54	5.59	6486	6025	inactive
CycY (Cyclin Y)	DRSC02420	14	11.2	6121	6164	inactive
CycY (Cyclin Y)	DRSC25092	2.83	5.14	5825	5856	inactive
CG4009	DRSC15536	10.5	3	6464	6596	inactive
Npc2g (Niemann-Pick type C-2g)	DRSC14296	4.08	6.5	6080	6335	inactive
moody	DRSC18515	11.6	3.64	5632	6096	inactive
Orc1 (Origin recognition complex subunit 1)	DRSC07496	0.8	1.62	6415	6237	inactive
CG8034	DRSC20076	6.12	13.6	6162	6286	inactive
CG8034	DRSC29895	8.85	1.99	5992	6021	inactive
CG7742	DRSC03066	3.3	6.9	6276	6188	inactive
CG15370	DRSC23277	1.56	5.18	6480	6311	inactive
CG15370	DRSC29703	12.9	4.54	6120	6341	inactive
CG5339	DRSC04496	34.4		5236	555	inactive
CG45067	DRSC08414	3.83	0.8	6266	6143	inactive
CG45067	DRSC27186	14	10.4	6917	6317	inactive
cdm (cadmus)	DRSC16213	14.6	15.7	5429	6413	inactive
CG9029	DRSC03129	10.9	9.41	4312	5387	inactive
sba (six-banded)	DRSC13643	4.47	4.74	5903	5380	inactive
sba (six-banded)	DRSC17050	0.49	1.78	6297	4834	inactive
sba (six-banded)	DRSC25797	1.9	0.52	6845	6481	inactive
CG7054	DRSC16185	12.1	2.19	6458	6951	inactive
CG7054	DRSC26659	2.13	2.26	6115	6019	inactive
